Compound potency records, mixed from different reports. Data source: NIAID ChemDB in PubChem.

All rows: host cell toxicity; cells: MT-4; read-out: CC50

Blank or dashed fields: not listed here.

compound,read by,value
Cc1cn([C@H]2C[C@H](N=[N+]=[N-])[C@@H](COP(=O)(O)O)O2)c(=O)[nH]c1=O,,>10 µM
Cc1ccnc2c1NC(=O)c1cccnc1N2C1CC1,MTT,>15 µM
CC1(C)S[C@H]([C@H](NC(=O)Cc2ccccc2)C(=O)NCc2ccccc2)N[C@H]1C(=O)NCCNC(=O)[C@@H]1N[C@@H]([C@H](NC(=O)Cc2ccccc2)C(=O)NCc2ccccc2)SC1(C)C,,>110 µM
COc1ccc(C(=O)CSc2nc(CCC3CCCCC3)cc(=O)[nH]2)cc1,MTT,156 µM
Cc1cn([C@H]2C[C@H](N=[N+]=[N-])[C@@H](COC(=O)c3cccnc3)O2)c(=O)[nH]c1=O,,99 µM
CC(C)=CCN1Cc2cc(Cl)cc3[nH]c(=S)n(c23)C[C@@H]1C,,20 µg/mL
Cc1cn([C@@H]2C[C@@H](N=[N+]=[N-])[C@H](COP(=O)(O)OC3CCC4(C)C(CCC5C4CC(O)C4(C)C(C(C)CCC(=O)OC[C@@H]6CC[C@H](n7cnc8c(=O)[nH]cnc87)O6)CCC54)C3)O2)c(=O)[nH]c1=O,MTT,42.22 µM
CO[C@@H]1C=C[C@@]23c4cc5c(cc4CO[C@@]2(O)CN(C)[C@H]3C1)OCO5,MTT,7.5 µg/mL
Cc1cn(C2CC(N=[N+]=[N-])C(COC(=O)c3cn4c5c(c(N6CCN(C)CC6)c(F)cc5c3=O)OC[C@@H]4C)O2)c(=O)[nH]c1=O,MTT,41.71 µM
COC(=O)[C@H](C)NP(=O)(OC[C@H]1O[C@@H](n2cc(C)c(=O)[nH]c2=O)CC1N=[N+]=[N-])Oc1ccccc1,MTT,107.6 µM
Cc1c(C(C)CC2CCCCC2)nc(SCC(=O)c2ccc(F)cc2)[nH]c1=O,MTT,115 µM
Nc1ncnc2c1ncn2CCOCP(=O)(O)O,,200 µM
COc1ccc(CCN=C2C=C(Cc3ccccc3)NS(=O)(=O)N2)cc1,MTT,209 µM
CCCCCCCCCC(=O)O[C@@]12[C@H](OCOCc3ccccc3)[C@@H](C)[C@@]3(O)[C@@H](C=C(CO)C[C@]4(O)C(=O)C(C)=C[C@@H]34)[C@@H]1C2(C)C,MTT,4.4 µg/mL
CC(C)[C@H](NC(=O)N(C)Cc1ccccn1)C(=O)N[C@@H](Cc1ccccc1)C[C@H](O)[C@H](Cc1ccccc1)NC(=O)[C@@H](NC(=O)N(C)Cc1ccccn1)C(C)C,,>0.16 µM
Cc1cn([C@H]2C[C@H](N=[N+]=[N-])[C@@H](CO)O2)c(=O)[nH]c1=O,MTT,>94 µM
NC(=O)c1ccc(NC2=NS(=O)(=O)NC(Cc3ccc4ccccc4c3)=C2)cc1,MTT,>245 µM
Cc1cn([C@H]2C=C[C@@H](COP(=O)(O)O)O2)c(=O)[nH]c1=O,MTT,187 µM
Cc1cn([C@H]2C[C@H](N=[N+]=[N-])[C@@H](CO)O2)c(=O)[nH]c1=O,,201 µM
O=S1(=O)N=C(Nc2ccccc2)C=C(Cc2cccc3ccccc23)N1,MTT,158 µM
C[C@@H](Cn1cnc2c(N)nc(N)nc21)OCP(=O)(O)O,,>300 µM
C[C@H](Cn1cnc2c(N)ncnc21)OCP(=O)(O)O,,>200 µM
CCc1c(CCC2CCCCC2)nc(SCC(=O)c2ccc(F)cc2)[nH]c1=O,MTT,164 µM
Cc1cc(SC2=C(O)C[C@](CCc3ccc(N)cc3)(C(C)C)OC2=O)c(C(C)(C)C)cc1CO,,>250 µg/mL
CC(C)[C@H](NC(=O)N(C)Cc1ccccn1)C(=O)N[C@@H](Cc1ccccc1)[C@@H](O)[C@H](O)[C@H](Cc1ccccc1)NC(=O)[C@@H](NC(=O)N(C)Cc1ccccn1)C(C)C,,>1.54 µM
Cc1cn([C@H]2C[C@H](N=[N+]=[N-])[C@@H](COP(=O)(OCCSC(=O)C(C)(C)C)OCCSC(=O)C(C)(C)C)O2)c(=O)[nH]c1=O,,>10 µM
CO[C@H]1CC[C@H](C)N2C[C@H]1n1cc(C(=O)NCc3c(F)cc(F)cc3F)c(=O)c(O)c1C2O,luminescence,34.8 µM
NC(=O)OCc1cn(Cc2ccncc2)c(Sc2cc(Cl)cc(Cl)c2)c1C1CCCCC1,MTT,119.7 µM
CCCCCCCC(=O)O[C@]12C(C3C(OO)C(CO)=C[C@]4(O)C(=O)C(C)=CC4[C@@]3(O)[C@H](C)[C@H]1OC(=O)c1ccccc1)C2(C)C,luminescence,<0.005 µM
N#Cc1ccc(Nc2nc(Oc3ccc(-c4ccc(C#N)cc4)cc3[N+](=O)[O-])c3sccc3n2)cc1,MTT,218.8 µM
CC(C)=CCc1cc(C(=O)/C=C/c2ccc(O)cc2)c(O)cc1O,,2 µg/mL
CONC(=O)c1cn(Cc2ccncc2)c(Sc2ccccc2)c1C(C)C,MTT,>200 µM
CCCCCCCCCC(=O)O[C@@]12[C@H](OC(OC)OCC)[C@@H](C)[C@@]3(O)[C@@H](C=C(CO)C[C@]4(O)C(=O)C(C)=C[C@@H]34)[C@@H]1C2(C)C,MTT,3.3 µg/mL
CC(C)c1c(C(=O)c2ccccc2)cn(Cc2ccncc2)c1Sc1cc(Cl)cc(Cl)c1,MTT,45 µM
O=S(=O)(O)OCC1OC2OC3C(COS(=O)(=O)O)OC(OC4C(COS(=O)(=O)O)OC(OC5C(COS(=O)(=O)O)OC(OC6C(COS(=O)(=O)O)OC(OC7C(COS(=O)(=O)O)OC(OC8C(COS(=O)(=O)O)OC(OC9C(COS(=O)(=O)O)OC(OC1C(OS(=O)(=O)O)C2OS(=O)(=O)O)C(OS(=O)(=O)O)C9OS(=O)(=O)O)C(OS(=O)(=O)O)C8OS(=O)(=O)O)C(OS(=O)(=O)O)C7OS(=O)(=O)O)C(OS(=O)(=O)O)C6OS(=O)(=O)O)C(OS(=O)(=O)O)C5OS(=O)(=O)O)C(OS(=O)(=O)O)C4OS(=O)(=O)O)C(OS(=O)(=O)O)C3OS(=O)(=O)O,,>250 µg/mL
O=c1[nH]cnc2c1ncn2[C@H]1CC[C@@H](CO)O1,MTT,>50 µM
CCn1cc(C(=O)OCC2OC(n3cc(C)c(=O)[nH]c3=O)CC2N=[N+]=[N-])c(=O)c2cc(F)c(N3CCN(C(=O)OCc4ccccc4)C(C)C3)c(F)c21,MTT,45.04 µM
C[C@H](Cn1cnc2c(N)ncnc21)OCP(=O)(O)OP(=O)(O)OP(=O)(O)O,,>200 µM
C=C(C)[C@@H]1CC[C@]2(C(=O)O)CC[C@]3(C)[C@H](CC[C@@H]4[C@@]5(C)CC[C@H](OC(=O)CC(C)(C)C(=O)O)C(C)(C)[C@@H]5CC[C@]43C)[C@@H]12,,14.03 µg/mL
CC(C)=CCc1cc(C(=O)CC(=O)c2cc3c(cc2O)OC(C)(C)C=C3)ccc1O,,8 µg/mL
O=c1[nH]cnc2c1ncn2[C@H]1CC[C@@H](CO)O1,,>125 µg/mL
Cc1ccc(NC2=NS(=O)(=O)NC(Cc3ccc4ccccc4c3)=C2)cc1C,MTT,147 µM
Cc1ccnc2c1NC(=O)c1cccnc1N2C1CC1,MTT,>200 µM
CC(=O)Oc1ccccc1C(=O)O,,>1000 µM
N#C[C@]1(CO)O[C@@H](n2cnc3c(N)ncnc32)C[C@@H]1O,MTT,12 µM
CO[C@@H]1C=C[C@@]23c4cc5c(cc4C(=O)O[C@H]2CN(C)[C@H]3C1)OCO5,MTT,7.5 µg/mL
CC(CC1CCCCC1)c1cc(=O)[nH]c(SCC(=O)c2ccccc2)n1,MTT,151 µM
COP(=O)(C[C@H](NP(=O)(O)OC[C@@H]1C=C[C@H](n2cc(C)c(=O)[nH]c2=O)O1)C(=O)O)OC,MTT,>259 µM
O=C(/C=C/c1ccc(O)c(O)c1)c1ccc(O)cc1O,,3.3 µM
Cc1cn(C2CC(N=[N+]=[N-])C(COC(=O)c3cn(C4CC4)c4c(F)c(N5CC(C)N(C(=O)OCc6ccccc6)C(C)C5NC(=O)OCc5ccccc5)c(F)cc4c3=O)O2)c(=O)[nH]c1=O,MTT,34.05 µM
C=C(Cn1cnc2c(=O)[nH]c(N)nc21)OCP(=O)(O)OP(=O)(O)OP(=O)(O)O,,>200 µM
Cc1ccc(C(=O)Nc2ccc(S(=O)(=O)O)c3cc(S(=O)(=O)O)cc(S(=O)(=O)O)c23)cc1NC(=O)c1cccc(NC(=O)Nc2cccc(C(=O)Nc3cc(C(=O)Nc4ccc(S(=O)(=O)O)c5cc(S(=O)(=O)O)cc(S(=O)(=O)O)c45)ccc3C)c2)c1,,>500 µg/mL
CC(C)=CCc1c(O)cc(O)c2c1O[C@H](c1ccc(O)cc1)CC2=O,,62 µg/mL
O=c1[nH]c2cc(NS(=O)(=O)c3ccc(-c4ccccc4)cc3)ccc2c(=O)n1O,MTT,305.3 µM
Cc1cn([C@H]2C[C@H](N=[N+]=[N-])[C@@H](CO)O2)c(=O)[nH]c1=O,,12 µM
Cc1c(Sc2ccccc2)n(COCCO)c(=O)[nH]c1=O,MTT,399 µM
Cc1cc(C#N)cc(C)c1Oc1nc(Nc2ccc(C#N)cc2)nc(N)c1Br,MTT,>4.6 µM
CCc1c(Sc2cccc3ccccc23)nc(SCC(=O)c2ccc(Cl)cc2)[nH]c1=O,MTT,22.44 µM
Nc1ncnc2c1ncn2[C@@H]1O[C@@H]2[C@H](O)CO[C@]2(CO)[C@H]1O,,>100 µM
Nc1ncnc2c1ncn2CCOCP(=O)(O)OP(=O)(O)OP(=O)(O)O,,>200 µM
Cc1cn([C@H]2C[C@H](N=[N+]=[N-])[C@@H](CO)O2)c(=O)[nH]c1=O,MTT,326 µM
COc1cc(NC2=NS(=O)(=O)NC(Cc3ccccc3)=C2)cc(OC)c1OC,MTT,>310 µM
CCCCCCCCCC(=O)O[C@@]12[C@H](OCC)[C@@H](C)[C@@]3(O)[C@@H](C=C(CO)C[C@]4(O)C(=O)C(C)=C[C@@H]34)[C@@H]1C2(C)C,MTT,3.3 µg/mL
Cc1cn([C@H]2C=C[C@@H](COP(=O)(O)N(CC(=O)O)CC(=O)O)O2)c(=O)[nH]c1=O,MTT,173 µM
N#Cc1ccc(Nc2nc(Oc3ccc(-c4ccc(C#N)cc4)cc3)c3sccc3n2)cc1,MTT,>280.8 µM
Nc1ncnc2c1ncn2[C@H]1C[C@@H](OCP(=O)(O)O)CO1,MTT,≥315 µM
CN(C)c1ccc(NC2=NS(=O)(=O)NC(Cc3ccc4ccccc4c3)=C2)cc1,MTT,33 µM
COc1cc2c(c(OC)c1CC=C(C)C)C[C@H](c1ccc(O)c(CC=C(C)C)c1O)CO2,,47 µg/mL
c1ccc2c(c1)ncc1cc3c(cc12)OCO3,MTT,7.5 µg/mL

6 of the rows above, restated:

compound | read by | value
C[C@H](Cn1cnc2c(N)ncnc21)OCP(=O)(O)OP(=O)(O)OP(=O)(O)O |  | >200 µM
CC(CC1CCCCC1)c1cc(=O)[nH]c(SCC(=O)c2ccccc2)n1 | MTT | 151 µM
Cc1c(Sc2ccccc2)n(COCCO)c(=O)[nH]c1=O | MTT | 399 µM
c1ccc2c(c1)ncc1cc3c(cc12)OCO3 | MTT | 7.5 µg/mL
O=c1[nH]cnc2c1ncn2[C@H]1CC[C@@H](CO)O1 |  | >125 µg/mL
Cc1cn([C@H]2C[C@H](N=[N+]=[N-])[C@@H](CO)O2)c(=O)[nH]c1=O | MTT | >94 µM

Neighbouring rows are from separate reports. CCn is the concentration with n% toxicity to the cells.